In PubChem BioAssay AID588778 (Southern Research Institute, 2011):
This is a selection; strong and weak results do not stand in their true shares. Active and inactive are the calls of the source. How the calls were made is not given here.

Experiment: Vibrio cholerae motility inhibitors, OD read-out (AID 588778)
Details: hits give high values, concentration not given here
For COc1ccc(OCC(=O)OC2CN3CCC2CC3)cc1 (configuration not stated), the inhibition was inactive: 14.6%.
In the case of Cc1cccc(C(=O)OC2CN3CCC2CC3)c1 (configuration not stated), the inhibition is reported as inactive: 3.42%.
